Data published in publication doi:10.1101/456418.
For at least one entry, the source does not settle the construct or the ends of the probe. A negative result means that nothing was seen under these conditions.

Tests used:
[1] = test system: KPAF4-Mut (Trypanosoma brucei (procyclic 29-13)); assay: EMSA; conditions: within the protein concentration range afforded by the assay
[2] = test system: KPAF4-WT (Trypanosoma brucei (procyclic 29-13)); assay: EMSA

Sequence | binding result [1] | binding result [2]
GGGUGGUGGUUUUGUUGAUUUACCCGGUGUAAAGUAUUAUACACGUAUUGUAAGUUAGAUUUAGAUAUAAGAUAUGUUUUU [No-tail RPS12 RNA] | no binding | no binding
GGGUGGUGGUUUUGUUGAUUUACCCGGUGUAAAGUAUUAUACACGUAUUGUAAGUUAGAUUUAGAUAUAAGAUAUGUUUUUAAAAAAAAAAAAAAAAAAAA [A-tail RPS12 RNA] | no binding | binds
GGGUGGUGGUUUUGUUGAUUUACCCGGUGUAAAGUAUUAUACACGUAUUGUAAGUUAGAUUUAGAUAUAAGAUAUGUUUUUUUUUUUUUUUUUUUUUUUUU [U-tail RPS12 RNA] | no binding | no binding
